Measured values: patent publication US20040197338A1, “Respiratory syncytial virus” (priority 2001, published 2004)

Legend:
Experiment in all cases: peptide scanning ELISA, peptide coated, P^His detected with anti-His antibody (FIG. 3)
[1] = molecular target: peptide N11 (respiratory syncytial virus, A2 strain)
[2] = molecular target: peptide N17 (respiratory syncytial virus, A2 strain)
[3] = molecular target: peptide N4 (respiratory syncytial virus, A2 strain)
[4] = molecular target: peptide N8 (respiratory syncytial virus, A2 strain)

Measured: OD405

P^His (recombinant RSV A2 phosphoprotein (P) with a Histidine tag at its amino terminus, expressed from pETP in E. coli) (a stretch of the chain, sequence left out)
> 0.2 OD405: all assays above
